Test results: paper PMC7886143, “A redox-active crosslinker reveals an essential and inhibitable oxidative folding network in the endoplasmic reticulum of malaria parasites” (2021)

Tests used:
PfJ2 = PfJ2 (Plasmodium falciparum, UniProt Q8IIR6); assay: covalent crosslinking in parasites, anti-HA western blot; IP and MS/MS; conditions: bifunctional crosslinker, 3 mM, 1x PBS, 30 min, 37 °C
PfPDI8 = PfPDI8 (Plasmodium falciparum, UniProt C0H4Y6); assay: covalent crosslinking in parasites, anti-V5 western blot; conditions: bifunctional crosslinker, 3 mM, 1x PBS, 30 min, 37 °C

C=CS(=O)(=O)C=C
covalent crosslinking in parasites, anti-HA western blot; IP and MS/MS (PfJ2): the addition of DVSF resulted in additional bands containing PfJ2 to appear
covalent crosslinking in parasites, anti-V5 western blot (PfPDI8): Several high molecular weight bands containing PfPDI8 appear following DVSF treatment
